Data on 1 substance can be found in publication PMC2918394 (Journal of medicinal chemistry, 2010).

The assay concerns the target SARS-CoV PLpro (Severe acute respiratory syndrome coronavirus, UniProt P0C6X7). In kind it is biochemical.

With “1-[1-(2-Naphthyl)ethyl]-4-(4-methoxybenzylamino)carbonylpiperazine [Compound 20]”, the IC50 was over 100 µM.

One may read the IC50 as the concentration at which inhibition is half-maximal. Low values mean higher potency, high ones lower potency.
